A mixed list of measured activities; the numbers were collected in NIAID ChemDB.

Shared fields: whole-cell or culture tests; agent: HIV-1; cells: MT-2; measure: EC50

ECn: concentration that inhibits the pathogen or its effect by n%. Rows are shuffled and stem from different studies. Blank or dashed fields: not listed here.

smiles,strain or isolate,method,setting,result
CC(C)C1=C2[C@H]3CC[C@@H]4[C@@]5(C)CC[C@H](OC(=O)[C@H]6C[C@@H](C(=O)O)C6(C)C)C(C)(C)[C@@H]5CC[C@@]4(C)[C@]3(C)CC[C@@]2(CCN(CCN(C)C)Cc2cccc(Cl)c2)CC1=O,92HT599,p24 / ELISA,,<1 µM
CCCc1cc(=O)oc2c(C(=O)C(C)C(C)(C)O)c(O)c3c(c12)OC(C)(C)C=C3,,cytopathic effect / MTT,,>27.1 µM
CCc1cn([C@H]2C=C[C@@H](OCP(=O)(O)O)O2)c(=O)[nH]c1=O,IIIB,cytopathic effect / XTT,,>100 µg/mL
C/C(CC(=O)Nc1ccc(C(N)=O)cc1)=N\NC(=O)COc1ccc2ccccc2c1,IIIB,p24,,>10 µM
CC(C)C1=C2C(CC[C@]3(C)[C@@H]2CC[C@@H]2[C@@]4(C)CC[C@H](OC(=O)[C@H]5C[C@@H](C(=O)O)C5(C)C)C(C)(C)[C@@H]4CC[C@]23C)[C@H](NC(=O)C(C)(C)C(=O)NC2CC2)C1=O,92HT599,p24 / ELISA,,<0.01 µM
CC(C)C1=C2[C@H]3CC[C@@H]4[C@@]5(C)CC[C@H](OC(=O)[C@H]6C[C@@H](C(=O)O)C6(C)C)C(C)(C)[C@@H]5CC[C@@]4(C)[C@]3(C)CC[C@@]2([C@@H](O)CNCC(C)(C)NC(=O)c2ncc[nH]2)CC1=O,92HT599,p24 / ELISA,,<1 µM
Nc1nc(Cl)c2ncn([C@H]3C=C[C@@H](CO)C3)c2n1,IIIB,cytopathic effect / XTT,,0.41 µg/mL
CC(C)C1=C2C(CC[C@]3(C)[C@@H]2CC[C@@H]2[C@@]4(C)CC[C@H](OC(=O)[C@H]5C[C@@H](C(=O)O)C5(C)C)C(C)(C)[C@@H]4CC[C@]23C)[C@H](NC(=O)C(C)(C)C(=O)NCc2ccc(Cl)cc2)C1=O,92HT599,p24 / ELISA,,<0.01 µM
COc1ccc(CCNC(=O)c2ccc(C(=O)NCCc3ccc(OC)c(OC)c3)nc2)cc1OC,IIIB,p24,,>10 µM
CC(C)C1=C2[C@H]3CC[C@@H]4[C@@]5(C)CC[C@H](OC(=O)[C@H]6C[C@@H](C(=O)O)C6(C)C)C(C)(C)[C@@H]5CC[C@@]4(C)[C@]3(C)CC[C@@]2(CCNCC(C)(C)NC(=O)c2ccc(N)nc2)CC1=O,92HT599,p24 / ELISA,,<1 µM
Cc1nc2cc3nn2c(c1[C@H](OC(C)(C)C)C(=O)O)-c1ccc2c(c1Cl)N(CCCCCCOc1cccc(c1)-c1cccc-3c1)CCO2,NL4-3,,10% FBS,0.03 µM
CCCc1cc(=O)oc2c(C(=O)C(C)(C)C(C)O)c(O)c3c(c12)OC(C)(C)C=C3,,cytopathic effect / MTT,,>37 µM
Cc1nc2ccc(C(=O)NC(C)(C)C(=O)NC[C@H](O)[C@@]34CC[C@]5(C)[C@H](CC[C@@H]6[C@@]7(C)CC[C@H](OC(=O)[C@H]8C[C@@H](C(=O)O)C8(C)C)C(C)(C)[C@@H]7CC[C@]65C)C3=C(C(C)C)C(=O)C4)cc2[nH]1,92HT599,p24 / ELISA,,<1 µM
C=Cc1cn([C@H]2C=C[C@@H](OCP(=O)(O)O)O2)c(=O)[nH]c1=O,IIIB,cytopathic effect / XTT,,>100 µg/mL
CCCc1cc(=O)oc2c3c(c4c(c12)OC(C)(C)C=C4)O[C@H](CC)[C@H](C)[C@@H]3O,,cytopathic effect / MTT,,>20.9 µM
Cc1nnc(N)nc1C/C=C/C(Sc1ccc(Cl)cc1)c1cccs1,RF,,,~0.2 µM
CC(C)C1=C2[C@H]3CC[C@@H]4[C@@]5(C)CC[C@H](OC(=O)[C@H]6C[C@@H](C(=O)O)C6(C)C)C(C)(C)[C@@H]5CC[C@@]4(C)[C@]3(C)CC[C@@]2(CC(=O)NCc2ccc(Cl)c(Cl)c2)CC1=O,92HT599,p24 / ELISA,,<1 µM
CCCc1cc(=O)oc2c3c(c4c(c12)OC(C)(C)C=C4)OC(C)(C)[C@H](C)C3=O,,cytopathic effect / MTT,,>21 µM
CCc1cn([C@H]2C=C[C@@H](OCP(=O)(O)O)O2)c(=O)nc1N,IIIB,cytopathic effect / XTT,,>100 µg/mL
CC(C)C1=C2[C@H]3CC[C@@H]4[C@@]5(C)CC[C@H](OC(=O)[C@H]6C[C@@H](C(=O)O)C6(C)C)C(C)(C)[C@@H]5CC[C@@]4(C)[C@]3(C)CC[C@@]2([C@@H](O)CNC(=O)c2ccc(C(F)(F)F)cc2)CC1=O,92HT599,p24 / ELISA,,<1 µM
Cc1nc2cc3nn2c(c1[C@H](OC(C)(C)C)C(=O)O)N1CCC(C)(/C=C/C=C/COc2ccc(Cl)cc2-c2cccc-3c2)CC1,NL4-3,,10% FBS,0.145 µM
CCCc1cc(=O)oc2c3c(c4c(c12)OC(C)(C)C=C4)OC(C)(C)[C@H](C)[C@@H]3O,,cytopathic effect / MTT,,>21.3 µM
CC(C)C1=C2C(CC[C@]3(C)[C@@H]2CC[C@@H]2[C@@]4(C)CC[C@H](OC(=O)[C@H]5C[C@@H](C(=O)O)C5(C)C)C(C)(C)[C@@H]4CC[C@]23C)[C@H](NC(=O)C(C)(C)C(=O)N2CCN(C)CC2)C1=O,92HT599,p24 / ELISA,,<0.01 µM
Cc1cn([C@H]2C=C[C@@H](OCP(=O)(O)O)O2)c(=O)[nH]c1=O,IIIB,cytopathic effect / XTT,,85 µg/mL
Nc1ncnc2c1ncn2[C@H]1C=C[C@@H](CO)C1,IIIB,cytopathic effect / XTT,,2.3 µg/mL
Nc1nc(=O)n([C@H]2C=C[C@@H](OCP(=O)(O)O)O2)cc1I,IIIB,cytopathic effect / XTT,,>100 µg/mL
COc1cc(/C=C2\C(=O)N(c3ccccc3)N=C2c2ccccc2)cc(Br)c1OCC(N)=O,IIIB,p24,,<10 µM
COc1ccc(S(=O)(=O)N(CC(C)C)C[C@@H](O)[C@H](Cc2ccccc2)NC(=O)O[C@H]2CCC[C@H]3CCC[C@H]32)cc1,LAI,MTT,,1 µM
O=C(CCCCC(=O)Nc1sc2c(c1C(=O)O)CCCC2)Nc1sc2c(c1C(=O)O)CCCC2,IIIB,p24,,>10 µM
CC(C)[C@H](NC(=O)[C@H](Cc1ccccc1)C[C@H](O)[C@H](Cc1ccccc1)NC(=O)OC(C)(C)C)C(=O)N[C@@H](Cc1ccccc1)C(=O)N1CCOCC1,LAV,RT activity,,0.05 µM
Cc1ccc(C(=O)NC(C)(C)C(=O)NC[C@H](O)[C@@]23CC[C@]4(C)[C@H](CC[C@@H]5[C@@]6(C)CC[C@H](OC(=O)[C@H]7C[C@@H](C(=O)O)C7(C)C)C(C)(C)[C@@H]6CC[C@]54C)C2=C(C(C)C)C(=O)C3)nc1,92HT599,p24 / ELISA,,<1 µM
Nc1nc(F)nc2c1ncn2[C@@H]1O[C@H](CO)C[C@@H]1F,IIIB,,,9.4 µg/mL
Nc1nc(N)c2ncn([C@H]3C=C[C@@H](CO)C3)c2n1,IIIB,cytopathic effect / XTT,,2.9 µg/mL
CCCc1cc(=O)oc2c3c(c4c(c12)OC(C)(C)C=C4)O[C@H](C)C(C)(C)[C@@H]3O,,cytopathic effect / MTT,,>20.3 µM

The first 3 rows once more:

CC(C)C1=C2[C@H]3CC[C@@H]4[C@@]5(C)CC[C@H](OC(=O)[C@H]6C[C@@H](C(=O)O)C6(C)C)C(C)(C)[C@@H]5CC[C@@]4(C)[C@]3(C)CC[C@@]2(CCN(CCN(C)C)Cc2cccc(Cl)c2)CC1=O ; strain or isolate: 92HT599 ; method: p24 / ELISA ; result: <1 µM
CCCc1cc(=O)oc2c(C(=O)C(C)C(C)(C)O)c(O)c3c(c12)OC(C)(C)C=C3 ; method: cytopathic effect / MTT ; result: >27.1 µM
CCc1cn([C@H]2C=C[C@@H](OCP(=O)(O)O)O2)c(=O)[nH]c1=O ; strain or isolate: IIIB ; method: cytopathic effect / XTT ; result: >100 µg/mL